This note sets out measurements from paper PMC13499021, “Cellular Assays for Dynamic Quantification of Deubiquitinase Activity and Inhibition” (Journal of molecular biology, 2023).

The assay concerns PL^pro-BL2. As to the kind of experiment: Two-color flow cytometry DUB activity assay, PLpro-BL2 chimera (BL2 loop of MERS). Particulars: 5 μM GRL0617, Figure 2C. (In general: In flow cytometry, cells or beads pass a laser one at a time.)

As for `Cc1ccc(N)cc1C(=O)N[C@H](C)c1cccc2ccccc12`, the “Percent inhibition of DUB activity” value is less than 2%.
